Test results: US8629239B2, “Methylocystis strain SB2 materials and methods” (Iowa State University Research Foundation, Inc., priority 2010, dated 2014)
Marks after values point to notes of the source that are not given here.

System: pmoA
Experiment: pmoA expression in Methylocystis strain SB2 by RT-PCR and real-time quantitative RT-PCR
Type: cell-based
Settings: for 16S transcript: 16S gene / pmoA transcript: pmoA gene / pmoA: 16S: growth substrate; for pmoA expression (reverse transcription-PCR): substrate as the sole carbon and energy source
[1] = grown on acetate from OD600 of 0.11 to 0.15
[2] = OD600 nm 0.30, standard deviation in parentheses

| SMILES | pmoA expression normalized to overall rRNA transcript levels, acetate vs. methane-grown (99% confidence interval) | pmoA transcript:pmoA gene copy number ratio, lower on acetate compared to methane (99% confidence interval) | decrease of pmoA expression normalized to overall transcription activity [1] | decrease of quantity of pmoA transcript [1] | decrease of ratio of 16S rRNA transcripts to 16S rRNA gene copy number (grown to an OD600 of 0.15) | 16S transcript: 16S gene (OD600 nm 0.11) | pmoA transcript: pmoA gene (OD600 nm 0.11) | pmoA: 16S (OD600 nm 0.11) | 16S transcript: 16S gene (OD600 nm 0.15) | pmoA transcript: pmoA gene (OD600 nm 0.15) | pmoA: 16S (OD600 nm 0.15) | decrease of expression of pmoA compared to growth on methane (real-time quantitative PCR and RT-PCR) | pmoA expression (reverse transcription-PCR) | 16S transcript: 16S gene [2] | pmoA transcript: pmoA gene [2] | pmoA: 16S [2] | 16S transcript: 16S gene (OD600 nm 0.43) | pmoA transcript: pmoA gene (OD600 nm 0.43) | pmoA: 16S (OD600 nm 0.43) |
| --- | --- | --- | --- | --- | --- | --- | --- | --- | --- | --- | --- | --- | --- | --- | --- | --- | --- | --- | --- |
| CC(=O)O [acetate] | 11-46 fold | 15-100 fold | three-fold | eight-fold | two-fold | 1270 (322) | 1.84 × 10^−1 (2.78 × 10^−2) | 1.45 × 10^−4 (4.28 × 10^−5) | 606 (129) | 2.71 × 10^−2 (5.43 × 10^−3) | 4.48 × 10^−5 (1.31 × 10^−5) | one to two orders of magnitude | expressed |  |  |  |  |  |  |
| CCO [ethanol] |  |  |  |  |  |  |  |  |  |  |  |  | expressed |  |  |  |  |  |  |
| C [methane] |  |  |  |  |  |  |  |  |  |  |  |  | expressed | 1410 (405)^a | 2.88 (0.28) | 2.06 × 10^−3 (6.23 × 10^−4) | 1680 (311) | 2.84 (0.64) | 1.69 × 10^−3 (4.89 × 10^−4) |
